Test system: Axilla bacteria cultures
Assay: Activation with axilla bacteria cultures, headspace-GC and/or 18 member panel
Type: cell-based
Settings: 0.1% precursor, 20 hours at 30° C., active axilla bacteria cultures

| Substance | Fragrant decomposition products formed |
| --- | --- |
| methyl-heptan-3-one O-(4-allyl-2-methoxy-phenoxycarbonyl) oxime [Example 3(a)] | oxime, and alcohol |
| 5-methyl-heptan-3-one O-(3-methyl-5-phenyl-oxycarbonyl) oxime [Example 3(b)] | oxime, and alcohol |

— patent US6521797B1, “Oxime carboxylic acid derivative precursors” (Givaudan AG, priority 1998, dated 2003)
